Assay: Drug interaction studies with oral rilpivirine
Details: rilpivirine 150 mg once daily; No Effect = 1.00

Geometric Mean Ratio of coadministered drug AUC with/without EDURANT: 0.89
Geometric Mean Ratio of coadministered drug Cmax with/without EDURANT: 0.90
Geometric Mean Ratio of coadministered drug Cmin with/without EDURANT: 0.89
Geometric Mean Ratio of rilpivirine AUC with/without coadministered drug: 2.30
Geometric Mean Ratio of rilpivirine Cmax with/without coadministered drug: 1.79
Geometric Mean Ratio of rilpivirine Cmin with/without coadministered drug: 2.78
Substance: Darunavir/ritonavir
